Pooled drug test results. Numbers come from NIAID ChemDB, via PubChem.

Neighbouring rows are from separate reports.

{"structure": "O=C(Nc1nnc(NC2CCc3ccccc32)s1)c1ccc2c(c1)C(=O)OC2=O", "target": "Polymerase", "organism": "Human cytomegalovirus", "endpoint": "IC50", "test": "target", "result": "<25 µM"}
{"structure": "C#CC[C@@H](C(=O)N[C@H](/C=C/C(=O)OCC)C[C@@H]1CCNC1=O)n1cccc(NC(=O)c2cc(C)on2)c1=O", "strain": "Serotype 1A", "organism": "Rhinovirus", "endpoint": "EC50", "method": "cytopathic effect / XTT", "cells": "H1-HELA", "test": "culture", "result": "0.036 µM"}
{"structure": "O=C1Nc2ccc(Cl)cc2[C@@](C#CC2CC2)(C(F)(F)F)O1", "target": "DNA polymerase alpha", "organism": "Human", "endpoint": "IC50", "test": "host protein", "result": "108.6 µM"}
{"structure": "O=C(Nc1nnc(NCCc2c[nH]c3ccccc23)s1)c1cccc([N+](=O)[O-])c1", "target": "Polymerase", "organism": "Human cytomegalovirus", "endpoint": "IC50", "test": "target", "result": ">25 µM"}
{"structure": "CO[C@@H]1[C@H](OC(=O)NC(=O)CCl)CC[C@]2(CO2)[C@H]1[C@@]1(C)O[C@@H]1CC=C(C)C", "organism": "Vittaforma corneae", "endpoint": "inhibition", "cells": "RK-13", "tested at": "0.0005 µg/mL", "test": "culture", "result": "54.4%"}
{"structure": "CCOc1ccc2ccccc2c1C(=O)Nc1nnc(NCCc2cccs2)s1", "target": "Polymerase", "organism": "Human cytomegalovirus", "endpoint": "IC50", "test": "target", "result": "<25 µM"}
{"structure": "C[C@H](Cc1ccc(O)c(O)c1)[C@@H](C)Cc1ccc(O)c(O)c1", "strain": "CCC 123-2000", "organism": "Candida kefyr", "endpoint": "MIC100", "method": "broth dilution", "test": "culture", "result": "250 µg/mL"}
{"structure": "Cc1cn([C@@H]2O[C@H](CO[Si](C)(C)C(C)(C)C)C3(OS(=O)(=O)C=C3N)[C@H]2O[Si](C)(C)C(C)(C)C)c(=O)n(C)c1=O", "changes": "RT-N137Q", "target": "Reverse transcriptase", "organism": "HIV", "endpoint": "fold resistance", "method": "nucleotide incorporation / radiometric", "test": "target", "result": "0.5"}
{"structure": "O=C(Nc1nnc(NCc2cccnc2)s1)c1ccc(Cl)c(Cl)c1", "target": "Polymerase", "organism": "Human cytomegalovirus", "endpoint": "IC50", "test": "target", "result": ">25 µM"}
{"structure": "COc1cc2oc(=O)ccc2cc1CC(O)C(C)(C)O", "organism": "Klebsiella pneumoniae", "endpoint": "zone", "method": "agar diffusion", "tested at": "250 µg/disc", "test": "culture", "result": "0 mm"}
{"structure": "O=C(/C=C/c1ccccc1Cl)Nc1nnc(NC2CCCCCC2)s1", "target": "Polymerase", "organism": "Human cytomegalovirus", "endpoint": "IC50", "test": "target", "result": ">25 µM"}
{"structure": "COc1cc(OC)cc(N(C)Cc2cnc3nc(N)nc(N)c3c2C)c1", "organism": "Encephalitozoon intestinalis", "endpoint": "inhibition", "cells": "RK-13", "tested at": "0.01 µg/mL", "test": "culture", "result": "40.6%"}
{"structure": "Cc1cn([C@H]2C=C[C@@H](COP(=O)(O)OP(=O)(O)OP(=O)(O)O)O2)c(=O)[nH]c1=O", "changes": "RT-N137A", "target": "Reverse transcriptase", "organism": "HIV", "endpoint": "IC50", "method": "nucleotide incorporation / radiometric", "test": "target", "result": "0.21 µM"}
{"structure": "CCO/N=C/c1ccc(OCCC2CCN(c3ccc(C)nn3)CC2)cc1", "strain": "1963M-CV40 (LDL receptor group 62)", "organism": "Rhinovirus", "endpoint": "EC50", "method": "neutral red", "cells": "KB", "test": "culture", "result": "0.092 µM"}
{"structure": "CCC[C@H](NC(=O)[C@@H]1[C@H]2CCC[C@H]2CN1C(=O)[C@@H](NC(=O)[C@@H](NC(=O)c1cnccn1)C1CCCCC1)C(C)(C)C)C(=O)C(=O)NC1CC1", "target": "Plasmin", "endpoint": "IC90", "method": "substrate cleavage", "test": "host protein", "result": "110 µM"}
{"structure": "CCN(CC)CCCC(C)Nc1c2ccc(Cl)cc2nc2ccc(OC)cc12", "organism": "Encephalitozoon intestinalis", "endpoint": "inhibition", "cells": "RK-13", "tested at": "0.1 µg/mL", "test": "culture", "result": "11.2%"}
{"structure": "O=c1cnn([C@@H]2O[C@H](CO)[C@@H](O)[C@H]2O)c(=O)[nH]1", "strain": "E101", "organism": "West Nile virus", "endpoint": "EC90", "method": "virus yield", "cells": "VERO", "test": "culture", "result": "3.2 µg/mL"}
{"structure": "CC1(C)C2CC[C@@H](CNc3nnc(NC(=O)c4cc(F)cc(F)c4)s3)C1C2", "target": "Polymerase", "organism": "Human cytomegalovirus", "endpoint": "IC50", "test": "target", "result": ">25 µM"}
{"structure": "CCCSc1ccc2nc(NC(=O)OC)[nH]c2c1", "organism": "Vittaforma corneae", "endpoint": "inhibition", "cells": "RK-13", "tested at": "0.001 µg/mL", "test": "culture", "result": "4.1%"}

For reference, 2 entries again:

structure | changes | target | strain | organism | endpoint | method | cells | tested at | test | result
CCC[C@H](NC(=O)[C@@H]1[C@H]2CCC[C@H]2CN1C(=O)[C@@H](NC(=O)[C@@H](NC(=O)c1cnccn1)C1CCCCC1)C(C)(C)C)C(=O)C(=O)NC1CC1 |  | Plasmin |  |  | IC90 | substrate cleavage |  |  | host protein | 110 µM
COc1cc(OC)cc(N(C)Cc2cnc3nc(N)nc(N)c3c2C)c1 |  |  |  | Encephalitozoon intestinalis | inhibition |  | RK-13 | 0.01 µg/mL | culture | 40.6%

Zones are inhibition diameters on agar. Fold resistance has wild type as its base. ECn: concentration that inhibits the pathogen or its effect by n%. MIC50, MIC90 and the like: level of inhibition, or share of isolates inhibited. An empty or dashed field is not shown. Percent inhibition refers to the dose given; in toxicity tests it is the harm to the cells. ICn is the concentration giving n% inhibition.